Fitness of HIV-1 LAI Vif variants in SupT1-APOBEC3G cells

The measurements come from Langley et al. 2025, preprint (doi:10.1101/2025.10.20.683452).

Vif of LAI (a laboratory-adapted subtype B strain), residues 12-115; positions count from the first residue of the whole protein:
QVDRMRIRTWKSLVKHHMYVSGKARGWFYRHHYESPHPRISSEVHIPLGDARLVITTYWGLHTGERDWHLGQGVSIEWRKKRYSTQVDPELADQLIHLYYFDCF

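Pooled viruses with one designed change each in Vif went through two 72 h rounds in SupT1 cells expressing APOBEC3G. Each of three replicates was sequenced after round two and set against the merged round-one pool.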

Values are log2 enrichment relative to wild type (0); lower means weaker defence against APOBEC3G and poorer growth. A change reads original residue, position, new residue. The median of three replicates is given, with the replicates in brackets. Input reads are the counts in the merged round-one pool, before selection. The authors note that some positive scores may be noise, and some enriched variants failed when tested singly. The scan is noisy: the rank correlation of replicates is about 0.4 to 0.65, and variants with under about 50 input reads tend to read too high. Some changes are missing from the data or left out.

mutation,input reads,median log2 enrichment
V85F,2512,-2.04 (-2.04 -0.86 -2.34)
M29F,442,1.01 (0.21 1.16 1.01)
F115W,26,2.40 (5.55 -1.29 2.40)
L102F,169,-1.33 (-3.19 2.23 -1.33)
G84N,741,-2.48 (-2.48 0.58 -2.97)
E76T,25,1.85 (-0.46 1.85 2.01)
P49Q,501,-1.56 (-1.56 2.45 -1.74)
T96C,274,-1.81 (-1.20 -3.57 -1.81)
S86C,205,2.58 (3.48 2.58 0.16)
G33I,368,-3.62 (-3.62 -4.05 -3.58)
S53I,243,-0.72 (-0.72 -1.78 3.95)
D113Y,1818,-2.35 (-2.35 -2.87 -0.77)
A62G,307,-0.89 (-0.89 -1.82 2.59)
L81E,88,-0.25 (-1.17 3.78 -0.25)
H42P,1103,-0.40 (1.91 -2.41 -0.40)
E88C,258,-1.67 (-1.67 -2.25 -1.59)
A62W,1208,-2.74 (-2.41 -3.85 -2.74)
M29E,463,-3.03 (-3.03 -4.13 -2.43)
L106S,192,-1.75 (-1.75 -1.28 -2.59)
S52H,515,-0.96 (-0.44 -1.56 -0.96)
L102V,130,-2.70 (-2.07 -2.70 -3.27)
H42R,62,1.48 (2.37 0.11 1.48)
G82Q,441,-2.44 (-2.44 -3.30 1.93)
R15C,470,-4.55 (-6.25 -4.55 -2.46)
G82Y,70,0.80 (5.58 -0.87 0.80)
R50P,836,-4.55 (-3.61 -4.55 -4.73)
V65S,395,-3.68 (-3.68 -5.17 -0.74)
G37S,21,1.91 (1.91 -1.00 2.39)
R77F,391,-1.64 (-1.46 -3.09 -1.64)
I107P,783,-0.11 (-1.11 -0.11 0.23)
D78Y,918,-0.09 (-1.72 0.58 -0.09)
T74G,713,-2.28 (-2.18 -2.28 -2.54)
G75Y,1406,-1.41 (-0.84 -2.23 -1.41)
G37E,825,-2.41 (-2.41 -3.19 0.51)
P47W,46,1.00 (1.00 -0.83 1.77)
G84D,150,-1.60 (-0.87 -3.14 -1.60)
K26N,140,-0.67 (-0.80 -0.67 -0.20)
Y40V,812,-1.64 (0.18 -2.73 -1.64)
T68C,892,-2.13 (-2.13 -3.75 -1.77)
F39C,36,-3.01 (-2.55 -4.57 -3.01)
W70T,782,-2.08 (-2.01 -2.95 -2.08)
W89K,520,-2.69 (-2.69 -3.35 -1.77)
T67Q,56,2.90 (2.49 2.90 5.73)
V13L,431,-0.29 (-0.29 0.94 -0.80)
V25A,319,-2.45 (-2.22 -4.90 -2.45)
P100A,99,-0.05 (0.10 -0.65 -0.05)
D99H,409,-0.67 (-1.80 1.40 -0.67)
K26C,405,-3.03 (-2.86 -4.13 -3.03)
G84Y,22,0.50 (0.50 5.29 -2.32)
F112E,19,0.21 (3.42 -3.66 0.21)
I107N,313,-2.21 (-1.93 -3.12 -2.21)
S46I,835,-1.01 (-1.40 -1.01 0.08)
V98P,657,-1.76 (-1.22 -2.55 -1.76)
I57Q,86,-0.79 (4.80 -1.73 -0.79)
H43V,353,-0.90 (-1.18 1.53 -0.90)
T68H,1001,-2.21 (-0.57 -3.32 -2.21)
G33Y,101,0.31 (0.31 3.80 -0.83)
E88F,442,-1.40 (-2.05 1.39 -1.40)
S52F,45,0.59 (0.59 5.06 0.12)
T68V,640,-1.57 (-2.61 1.31 -1.57)
A103N,196,-1.50 (-1.50 -4.19 2.68)
F115P,409,-1.94 (-4.45 -1.94 -1.37)
P58W,271,-1.02 (-0.92 -1.02 -1.24)
V65D,973,0.54 (-0.73 0.54 3.81)
T67H,743,-1.54 (-1.54 -4.04 -1.37)
S23Q,1647,0.36 (-1.15 0.36 0.40)
K92I,488,-1.69 (-1.62 -3.27 -1.69)
H108L,189,-3.35 (-3.35 -3.47 -1.91)
M16K,117,-0.33 (-0.33 -0.64 -0.13)
V98G,58,-1.64 (-1.64 -5.25 -0.24)

A selection of 9 entries from above:

- L106S (input reads 192) -> -1.75 (-1.75 -1.28 -2.59)
- K26N (input reads 140) -> -0.67 (-0.80 -0.67 -0.20)
- F115P (input reads 409) -> -1.94 (-4.45 -1.94 -1.37)
- P100A (input reads 99) -> -0.05 (0.10 -0.65 -0.05)
- P58W (input reads 271) -> -1.02 (-0.92 -1.02 -1.24)
- A103N (input reads 196) -> -1.50 (-1.50 -4.19 2.68)
- W70T (input reads 782) -> -2.08 (-2.01 -2.95 -2.08)
- E88C (input reads 258) -> -1.67 (-1.67 -2.25 -1.59)
- G82Y (input reads 70) -> 0.80 (5.58 -0.87 0.80)